Results taken from patent US20100292214A1, “Compounds with Antiparasitic Activity, Applications thereof to the Treatment of Infectious Diseases Caused by Apicomplexans” (commissariat a l'Energie Atomique, priority 2007, published 2010).
pIC50: −log10 of the molar value.

Key:
[1] = test system: Toxoplasma gondii RH-β1 strain; details: read-out: IC50 assessed on Toxoplama Gondii; RH-β1 strain in HFF monolayers, 48-72 hr, CPRG β-galactosidase readout, triplicates
[2] = test system: asynchronous 3D7 chloroquine-sensitive P. falciparum infected red blood cells; assay: Labeled hypoxanthine incorporation assay (in vitro anti-malarial activity); format: cell-based; details: read-out: IC50 assessed on Plasmodium Falciparum; 3D7 chloroquine-sensitive strain, infected RBC, 48 h contact, [3H]-hypoxanthine incorporation; two independent experiments in duplicates

Row | SMILES | pIC50 [1] | pIC50 [2]
1 | C[C@@H](COC(=O)N1CCC(N(C(=O)c2ccccc2)c2ccccc2)CC1)N(Cc1ccccc1)Cc1ccccc1 | 5.57 | 5.84
2 | C[C@@H](COC(=O)N1CCC(N(C(=O)Nc2ccccc2)c2ccccc2)CC1)N(Cc1ccccc1)Cc1ccccc1 | 5.57 | 5.39
